Article PMC9610207 (Viruses, 2022)

Amino acid sequences for entries named in this document (tags omitted). A change or cut given only in a name is not applied to a line headed by its entry.
UniProt O00560: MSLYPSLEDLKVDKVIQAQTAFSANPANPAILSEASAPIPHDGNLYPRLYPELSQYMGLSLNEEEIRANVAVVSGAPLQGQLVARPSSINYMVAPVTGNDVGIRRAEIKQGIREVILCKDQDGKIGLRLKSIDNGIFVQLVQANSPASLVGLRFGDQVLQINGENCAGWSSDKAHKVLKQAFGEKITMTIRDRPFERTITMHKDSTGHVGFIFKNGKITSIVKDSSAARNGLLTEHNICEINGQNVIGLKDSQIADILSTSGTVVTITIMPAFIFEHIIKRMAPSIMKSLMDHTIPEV

Target: human Syntenin PDZ1-2 (amino acids 111-213) (human, UniProt O00560 111-213)
Test: fluorescence polarisation
Conditions: both partners purified

Work on SADAQSFLNGFAV (FITC-labeled) [FITC-labeled peptide NSP11 4393-4405 of SARS-CoV-2] yielded a Kd of 133 ± 25 µM.
